Results deposited as PubChem BioAssay AID504761 (Drosophila RNAi Screening Center, 2011)

- Screen: 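Fly genes whose silencing reduces dengue virus type 2 infection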 (primary screen)
- Cells: D.Mel-2 cells from Drosophila
- Reagents: long dsRNA against Drosophila genes
- Challenge: infection with dengue virus type 2; dose and infection time not stated
- Detection: 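Cells stained for dengue envelope protein and imaged; percent of infected cells per well on duplicate plates, ranked by infection, with stained nuclei counted for cell number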
- Direction: infection score: higher = more virus-infected cells; cell count: higher = more cells in the well
- Call rule: 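Low infection ranks in the two replicates (chance level up to 0.065) followed by a retest with a 1.5-fold or larger significant decrease, p below 0.05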
- Calls: active = confirmed: knock-down lowers infection; inactive = not picked or not confirmed
The screen tested about 22,000 reagents; this is an unselected part of those with a known target gene and a result. Over the whole deposit, 116 (0.52%) are marked active. 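Calls depend on retest data that are not deposited; infection was ranked per plate without normalising between plates; the unit of the infection score is not given.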 The raw values are shown without normalisation. Entries without a mark were called inactive. Not stated in the record: the amount of reagent, the time to read-out.

gene | amplicon | infection score, replicate 1 | infection score, replicate 2 | cell count, replicate 1 | cell count, replicate 2
CG4476 | DRSC10424 | 1.19 | 1.83 | 5894 | 6235
CG4476 | DRSC25362 | 8.73 | 5.58 | 6769 | 6932
kuk | DRSC15730 | 12.6 | 4.06 | 5753 | 6632
kuk | DRSC26235 | 3.46 | 1.97 | 6294 | 6144
VAChT | DRSC13311 | 6.68 | 5.99 | 6006 | 4978
VAChT | DRSC16608 | 2.44 | 4.27 | 5768 | 6234
VAChT | DRSC23986 | 2.41 | 4.14 | 6300 | 5874
brn | DRSC18746 | 8.13 | 31.1 | 6589 | 637

4 neighbouring reagents from above, for reference:
gene | amplicon | infection score, replicate 1 | infection score, replicate 2 | cell count, replicate 1 | cell count, replicate 2
kuk | DRSC15730 | 12.6 | 4.06 | 5753 | 6632
kuk | DRSC26235 | 3.46 | 1.97 | 6294 | 6144
VAChT | DRSC13311 | 6.68 | 5.99 | 6006 | 4978
VAChT | DRSC16608 | 2.44 | 4.27 | 5768 | 6234

The list goes on.
gene | amplicon | infection score, replicate 1 | infection score, replicate 2 | cell count, replicate 1 | cell count, replicate 2
CG31205 | DRSC13438 | 1.92 | 2.11 | 6391 | 5723
CG31205 | DRSC26824 | 6.89 | 11.9 | 6674 | 6780
Hmgcl | DRSC02051 | 2.49 | 12.2 | 1203 | 3078
CheB98a | DRSC14882 | 17.1 | 1.25 | 5314 | 6425
CG16995 | DRSC00480 | 3.81 | 3.45 | 6324 | 6323
CG18581 | DRSC10324 | 7.33 | 0.24 | 6114 | 7152
Ag5r | DRSC19327 | 4.05 | 2.23 | 6019 | 6022
Ag5r | DRSC29999 | 8.48 | 8.25 | 6047 | 6433
CG4382 | DRSC02743 | – | – | 461 | 424
CG4382 | DRSC29493 | – | – | 376 | 350
CSN1b | DRSC11108 | 16.5 | 19.6 | 4726 | 3939
SmydA-1 | DRSC07200 | 7.21 | 15.5 | 5921 | 6268
AdamTS-B | DRSC18346 | 4.38 | 7.68 | 6503 | 6807
AdamTS-B | DRSC27769 | 5.41 | 2.64 | 6785 | 6628
Plp | DRSC10006 | 1.43 | 1.92 | 6435 | 6865
Plp | DRSC10333 | 1.97 | 1.72 | 6544 | 6389
Plp | DRSC10700 | 10.7 | 16.8 | 4989 | 5406
